The values that follow come from paper PMC10914731, “Homo-BacPROTAC-induced degradation of ClpC1 as a strategy against drug-resistant mycobacteria” (Nature Communications, 2024).

Molecules are shown by their SMILES. For part of its entries the source gives two or more results. Only these are listed. An entry can have further records. Results that share an entry do not match, cause unknown; dose, time, organism, isomer or construct need not be as stated for each record.

The series relates to Caco-2 monolayers.

What is called Papp A→B is how fast a substance crosses the layer from the apical side. For `C=CC(C)(C)n1cc(C[C@H]2C(=O)N(C)[C@@H](C[C@@H](C)CO)C(=O)N[C@@H](C)C(=O)N[C@@H]([C@H](OC)c3ccccc3)C(=O)N[C@@H](C(C)C)C(=O)N(C)[C@@H](CC(C)C)C(=O)N[C@@H]([C@H](C)C=C(C)C)C(=O)N2C)c2ccccc21` [Compound 23], the Papp A→B is 19 ×10⁻⁶ cm/s and 3.9 ×10⁻⁶ cm/s.
